Measurements as given in patent US10793526B2, “Hydantoin derivative compounds, methods of use and methods of treatment” (University of South Florida, priority 2016, dated 2020).

What follows are compounds tested on red blood cells (RBCs) of mice (assay: Hemolytic assay). Conditions: selectivity index, MRSA MIC vs hemolytic activity.
Format: cell-based
Protocol: Fresh red blood cells (RBCs) of mice were washed with 1×PBS buffer and centrifuged 10 min at 3500 rpm for 3 times until the supernatant was clear, then RBCs were diluted into 5% v/v suspension in 1×PBS. 50 μL compounds in PBS were 2-fold serially diluted in a 96-well plate, and incubated with 50 μL RBCs suspension for 1 h at 37° C. The mixture was then centrifuged for 10 min at 3500 rpm. Subsequently, 30 μL of the supernatant was added to 100 μL PBS, then the absorbance of mixture was read on a Biotek Synergy HT plate reader at 540 nm. The hemolytic activity was calculated by the formula % hemolysis=(Abssample−AbsPBS)/(AbsTriton−AbsPBS)×100%. 1% Triton X-100 were used as the positive control and 1×PBS buffer was used as the negative control.

| Compound | SI (HC50/MIC) |
| --- | --- |
| CCCCCCCCCCCCCC(=O)N[C@@H](CCCCN)CN1CC(=O)N(CC)C1=O [Compound 3, (S)—N-(6-amino-1-(3-ethyl-2,4-dioxoimidazolidin-1-yl)hexan-2-yl)tetradecanamide] | 14.4 |
| CCCCCCCCCCCC(=O)N[C@@H](CCCCN)CN1CC(=O)N(CCCC)C1=O [Compound 6, (S)—N-(6-amino-1-(3-butyl-2,4-dioxoimidazolidin-1-yl)hexan-2-yl)dodecanamide] | 6.4 |
| CCCCCCCCCCCC(=O)N[C@@H](CCCCN)CN1CC(=O)N(C2CCCCC2)C1=O [Compound 10, (S)—N-(6-amino-1-(3-cyclohexyl-2,4-dioxoimidazolidin-1-yl)hexan-2-yl)dodecanamide] | 16 |
| CCCCCCCCCC(=O)N[C@@H](CCCCN)CN1CC(=O)N(C23CC4CC(CC(C4)C2)C3)C1=O [Compound 13, N—((S)-1-(3-((3R,5R,7R)-adamantan-1-yl)-2,4-dioxoimidazolidin-1-yl)-6-aminohexan-2-yl) decanamide] | 20 |
| CCCCCCCCCCCC(=O)N[C@@H](CCCCN)CN1CC(=O)N(c2ccc(OC)cc2)C1=O [Compound 18, (S)—N-(6-amino-1-(3-(4-methoxyphenyl)-2,4-dioxoimidazolidin-1-yl)hexan-2-yl)dodecan amide] | 8 |
| CCCCCCCCCC(=O)N[C@@H](CCCCN)CN1CC(=O)N(c2cccc(Cl)c2)C1=O [Compound 21, (S)—N-(6-amino-1-(3-(3-chlorophenyl)-2,4-dioxoimidazolidin-1-yl)hexan-2-yl)decanamide] | 16 |
